Earlier results in US20090178587A9, “Control of biofilms in industrial water systems” (priority 2001, published 2009).

Columns and labels:
[1] = test system: biofilm-associated Legionella; settings: result in words; cited from earlier work
[2] = test system: biofilms consisting of a consortium of Legionella, heterotrophic bacteria and amoebae; settings: 48 hours contact; chlorine 2 to 4 ppm, BCDMH 10 ppm, glutaraldehyde 100 ppm active; result in words; cited from earlier work

chlorine
effect on levels of biofilm-associated Legionella [1]: non detectable levels | efficacy against biofilm-associated heterotrophic bacteria and Legionella [2]: rapid reductions
